Reference: PubChem BioAssay AID1224833 (University of Georgia, 2016)

Purpose: 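Human genes whose knock-down alters rotavirus replication in monkey cells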 (primary screen)
Cell system: monkey MA104 kidney cells
Knock-down reagent: siRNA pool against human genes, 50 nM
Time to read-out: 48 h knock-down before infection; read 24 h after infection
Challenge: infection with rotavirus strain RV3 two days after transfection; infectious dose for this stage not given
Measured: 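z-score of rotavirus antigen signal per well, from a fluorescent immunoassay, relative to non-targeting control wells on the same plate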
Scale: z-score vs non-targeting control: higher = more rotavirus replication than with non-targeting control
Call rule: In these data the active calls have z-score vs non-targeting control at about -1 or lower, or at about 1 or higher
Meaning of the calls: active = z-score beyond 1 either way; inactive = z-score within 1 of zero
The whole screen tested about 12,000 reagents; below is a part drawn at random. About 5,600 of all reagents (46%) count as active. 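Active calls cover z-scores past 1 in both directions, so they include lowered as well as raised rotavirus replication.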 Entries without a mark were called inactive.

C10orf90 (chromosome 10 open reading frame 90) showed z-score vs non-targeting control -0.486.
With knock-down of SPACA5B (sperm acrosome associated 5B) the results were z-score vs non-targeting control -1.14 (active).
Against PSMC1 (proteasome 26S subunit, ATPase 1), the values are z-score vs non-targeting control 0.714.
With knock-down of B9D1 (B9 domain containing 1), the record shows z-score vs non-targeting control -0.516.
CXCL9 (C-X-C motif chemokine ligand 9) scored z-score vs non-targeting control -1.25 (active).
Depletion of ZNF709 (zinc finger protein 709) resulted in: z-score vs non-targeting control 0.99.
Against VAMP2 (vesicle associated membrane protein 2) the deposit lists z-score vs non-targeting control -1.39 (active).
Knock-down of P4HA2 (prolyl 4-hydroxylase subunit alpha 2) came out at: z-score vs non-targeting control 0.815.
Against TBC1D10B (TBC1 domain family member 10B), the values are z-score vs non-targeting control -0.872.
For OPALIN (oligodendrocytic myelin paranodal and inner loop protein) the deposit lists z-score vs non-targeting control 1.14 (active).
Depletion of DMBX1 (diencephalon/mesencephalon homeobox 1) resulted in: z-score vs non-targeting control 0.804.
Against OR5M9 (olfactory receptor family 5 subfamily M member 9) the deposit lists z-score vs non-targeting control 0.436.
Silencing of RAB12 (RAB12, member RAS oncogene family) came out at: z-score vs non-targeting control 0.801.
Depletion of RFC1 (replication factor C subunit 1) came out at: z-score vs non-targeting control -0.936.
Against CYRIA (CYFIP related Rac1 interactor A) the deposit lists z-score vs non-targeting control -0.977.
ZNF467 (zinc finger protein 467) gave z-score vs non-targeting control -1.08 (active).
PPP1R14C (protein phosphatase 1 regulatory inhibitor subunit 14C) gave z-score vs non-targeting control 1.83 (active).
GPRC5D (G protein-coupled receptor class C group 5 member D) scored z-score vs non-targeting control -0.946.
CPEB2 (cytoplasmic polyadenylation element binding protein 2) gave z-score vs non-targeting control -0.96.
After knock-down of SPAG16 (sperm associated antigen 16) the results were z-score vs non-targeting control -0.435.
Knock-down of DNAAF8 (dynein axonemal assembly factor 8) came out at: z-score vs non-targeting control -1.01 (active).
After knock-down of CST7 (cystatin F), the screen gave z-score vs non-targeting control -0.767.
For OR10W1 (olfactory receptor family 10 subfamily W member 1) the deposit lists z-score vs non-targeting control -2.09 (active).
SFMBT2 (Scm like with four mbt domains 2) showed z-score vs non-targeting control -0.0316.
NIPAL3 (NIPA like domain containing 3) showed z-score vs non-targeting control 0.819.
For ZNF114 (zinc finger protein 114), the entry reads z-score vs non-targeting control 0.535.
For MTRR the deposit lists z-score vs non-targeting control -0.917.
After knock-down of VAV2 (vav guanine nucleotide exchange factor 2) the results were z-score vs non-targeting control 1.17 (active).
After knock-down of CSGALNACT2 (chondroitin sulfate N-acetylgalactosaminyltransferase 2), the record shows z-score vs non-targeting control -0.598.
Depletion of QPCT (glutaminyl-peptide cyclotransferase) gave: z-score vs non-targeting control 1.57 (active).
TOB1 (transducer of ERBB2, 1) showed z-score vs non-targeting control -1.61 (active).
For FRZB (frizzled related protein) the deposit lists z-score vs non-targeting control 2.83 (active).
Against CDO1 (cysteine dioxygenase type 1), the entry reads z-score vs non-targeting control 0.823.
WNT9B (Wnt family member 9B) showed z-score vs non-targeting control -0.91.
TIPE2 (TNF alpha induced protein 8 like 2) gave z-score vs non-targeting control -0.749.
Depletion of MICALL1 (MICAL like 1) came out at: z-score vs non-targeting control -0.581.
PCSK2 (proprotein convertase subtilisin/kexin type 2) showed z-score vs non-targeting control 1.2 (active).
After knock-down of RMDN3 (regulator of microtubule dynamics 3), the record shows z-score vs non-targeting control 1.69 (active).
Depletion of DCT (dopachrome tautomerase) gave: z-score vs non-targeting control -0.889.
ARNT (aryl hydrocarbon receptor nuclear translocator) scored z-score vs non-targeting control -0.124.
Silencing of TBC1D8B (TBC1 domain family member 8B) resulted in: z-score vs non-targeting control -1.5 (active).
After knock-down of KRTAP4-5 (keratin associated protein 4-5), the screen gave z-score vs non-targeting control -1.74 (active).
Silencing of GCG (glucagon) gave: z-score vs non-targeting control 0.751.
For MVP (major vault protein) the deposit lists z-score vs non-targeting control -0.398.
For ELAVL3 (ELAV like RNA binding protein 3), the values are z-score vs non-targeting control 0.751.
After knock-down of CCR10 (C-C motif chemokine receptor 10), the screen gave z-score vs non-targeting control 0.551.
With knock-down of CD68 (CD68 molecule), the record shows z-score vs non-targeting control -1.84 (active).

Part of the list above, set out differently.
gene knocked down,z-score vs non-targeting control
KRTAP4-5 (keratin associated protein 4-5),-1.74 (active)
GCG (glucagon),0.751
MVP (major vault protein),-0.398
ELAVL3 (ELAV like RNA binding protein 3),0.751
